Results of unrelated studies side by side (data: NIAID ChemDB).

Shared fields: enzyme or target tests; agent: HIV-2; protein: Reverse transcriptase; read-out: IC50

ICn is the concentration giving n% inhibition. Rows are shuffled and stem from different studies.

{"smiles": "O=C(OC1[C@H](OC(=O)c2cc(O)c(O)c(O)c2)CC(OC(=O)c2cc(O)c(O)c(O)c2)(C(=O)O)C[C@H]1OC(=O)c1cc(O)c(O)c(O)c1)c1cc(O)c(O)c(O)c1", "strain or isolate": "ROD", "result": "0.8 µM"}
{"smiles": "Cc1ccc(C)c(CSc2c(Cl)ccc[n+]2[O-])c1", "read by": "nucleotide incorporation / radiometric", "result": ">500 µg/mL"}
{"smiles": "CC(C)=CCC/C(C)=C/CC/C(C)=C/CC/C(C)=C/CC/C(C)=C/CC/C(C)=C/Cc1cc(O)ccc1O", "read by": "nucleotide incorporation", "result": "1.5 µM"}
{"smiles": "COc1ccc(C)cc1CS(=O)(=O)c1cccc[n+]1[O-]", "read by": "nucleotide incorporation / radiometric", "result": ">500 µg/mL"}
{"smiles": "O=C(CCCCC(=O)Nc1ccc(Br)cc1)Nc1ccccc1", "result": ">100 µg/mL"}
{"smiles": "CC(C)=CCN1Cc2cccc3[nH]c(=S)n(c23)C[C@@H]1C", "strain or isolate": "ROD", "read by": "nucleotide incorporation", "result": ">300 µM"}
{"smiles": "O=C(CCCCC(=O)Nc1ccc(Br)cc1C(=O)O)Nc1ccccc1", "result": ">100 µg/mL"}
{"smiles": "Cc1ccc(C)c(CS(=O)(=O)c2cccc[n+]2[O-])c1", "read by": "nucleotide incorporation / radiometric", "result": ">500 µg/mL"}
{"smiles": "CC(C)=CCOc1cc(NC(=S)c2ccsc2C)ccc1Cl", "result": ">100 µM"}
{"smiles": "C=C(C)OC(=O)N1c2cc(Cl)ccc2NC(=S)C1(C)C", "changes": "RT-D194", "strain or isolate": "ROD", "read by": "radiometric", "result": ">500 µM"}
{"smiles": "CC(C)OC(=O)c1cc(NC(=S)OC(C)C)ccc1Cl", "result": ">>300 µM"}
{"smiles": "CCOCn1c(Sc2ccccc2)c(CC)c(=O)[nH]c1=O", "result": ">500 µM"}
{"smiles": "O=C(COCC(=O)Nc1ccc(Br)cc1C(=O)O)Nc1ccc(Br)cc1C(=O)O", "result": ">100 µg/mL"}
{"smiles": "CCc1c(C)[nH]c(=O)c(N)c1Sc1cc(C)cc(C)c1", "read by": "nucleotide incorporation", "result": ">10 µM"}
{"smiles": "O=S(=O)(Cc1ccccc1I)c1cccc[n+]1[O-]", "read by": "nucleotide incorporation / radiometric", "result": ">500 µg/mL"}
{"smiles": "COc1ccc(C)cc1CS(=O)(=O)c1cccc[n+]1[O-]", "read by": "nucleotide incorporation / radiometric", "result": ">500 µg/mL"}
{"smiles": "CC(C)=CCOc1cc(NC(=S)c2ccoc2C)ccc1Cl", "result": ">100 µM"}
{"smiles": "C[C@H]1C2(O)CCC3C1(CCC1[C@@]3(C)CC[C@@]3(C)C4C[C@](C)(C(=O)O)CC[C@]4(C)CC[C@]13C)CO2", "result": "100 µg/mL"}
{"smiles": "CCN1C(=O)C=CC1=O", "read by": "nucleotide incorporation", "result": "750 µM"}

2 of the rows above, restated:

C[C@H]1C2(O)CCC3C1(CCC1[C@@]3(C)CC[C@@]3(C)C4C[C@](C)(C(=O)O)CC[C@]4(C)CC[C@]13C)CO2 ; result: 100 µg/mL
COc1ccc(C)cc1CS(=O)(=O)c1cccc[n+]1[O-] ; read by: nucleotide incorporation / radiometric ; result: >500 µg/mL